A mixed list of measured activities; the numbers were collected in NIAID ChemDB.

All rows: cytotoxicity tests; cell line: CEM; read-out: CC50

An empty or dashed field is not shown. Neighbouring rows are from separate reports. CCn: concentration that lowers growth or viability of the cells by n%.

structure | read by | result
O=C1NC(=O)C(CSCc2ccccc2)(CSCc2ccccc2)N1 |  | >100 µM
COc1ccc2nc(Cl)c(/C=C/C(=O)c3sccc3Cl)cc2c1 | MTS | 2.3 µM
O=C(CN1c2c(-c3ccccc3)n[nH]c2-c2ccccc2S1(=O)=O)N/N=C/c1ccc([N+](=O)[O-])cc1 |  | 20.8 µM
CC(C)CN(C[C@@H](O)[C@H](Cc1ccccc1)NC(=O)[C@H](C)CS(C)(=O)=O)S(=O)(=O)c1ccccc1 |  | 213 µM
COc1ccc(CSCC2(CSCc3ccc(OC)cc3)NC(=O)NC2=O)cc1 |  | >6 µM
CC(C)[C@@H](CCC(=O)O)NC(=O)c1ccccc1SSc1ccccc1C(=O)N[C@H](CCC(=O)O)C(C)C |  | 74 µM
NC(CSCc1ccccc1)(CSCc1ccccc1)C(=O)O |  | >100 µM
NNC(=O)CN1c2c(-c3ccccc3)n[nH]c2-c2ccccc2S1(=O)=O |  | 15.1 µM
O=C1N=C2SC=C(NC(=S)Nc3ccccc3)N2NC12c1ccccc1-c1ccccc12 |  | 66 µM
CC(C)(C)[Si](C)(C)OC[C@H]1O[C@@H](n2ccc(=O)[nH]c2=O)[C@H](O[Si](C)(C)C(C)(C)C)[C@]12O[C@@H]2CO | propidium iodide / flow cytometry | 26 µM
CC(NC(=O)c1ccccc1SSc1ccccc1C(=O)NC(C)C(=O)O)C(=O)O |  | >100 µM
Cc1ccc2nc(Cl)c(/C=C/C(=O)c3ccc[nH]3)cc2c1 | MTS | 4.9 µM
NC(=O)CCNC(=O)c1ccccc1SCc1ccc(OP2(=O)OCc3ccccc3O2)cc1 | XTT | >50 µM
CC(C)C[C@H](NC(=O)c1ccccc1SSc1ccccc1C(=O)N[C@@H](CC(C)C)C(N)=O)C(N)=O |  | 21 µM
Cc1ccc2nc(Cl)c(/C=C/C(=O)c3ccc(I)s3)cc2c1 | MTS | 61.1 µM
CC(C)CCN(C[C@@H](O)[C@H](Cc1ccccc1)NC(=O)[C@H](C)CS(C)(=O)=O)S(=O)(=O)c1ccccc1 |  | >1000 µM
COc1ccc2nc(Cl)c(/C=C/C(=O)c3c4ccccc4cc4ccccc34)cc2c1 | MTS | 9.8 µM
C=C(C)[C@@H]1CC[C@]2(C(=O)NCCCCCCC(=O)NCCC(=O)O)CC[C@]3(C)[C@H](CC[C@@H]4[C@@]5(C)CC[C@H](O)C(C)(C)[C@@H]5CC[C@]43C)[C@@H]12 |  | >3 µM
CC(C)CCN(C[C@@H](O)[C@H](Cc1ccccc1)NC(=O)[C@H](C)CS(C)(=O)=O)S(=O)(=O)c1ccc(N)cc1 |  | 170 µM
NC(=O)C[C@H](NC(=O)c1ccccc1SSc1ccccc1C(=O)N[C@@H](CC(N)=O)C(=O)O)C(=O)O |  | >100 µM
Cc1cn([C@@H]2O[C@H](CO[Si](C)(C)C(C)(C)C)C3(O[C@H]3C(N)=O)[C@H]2O[Si](C)(C)C(C)(C)C)c(=O)[nH]c1=O | propidium iodide / flow cytometry | 5 µM
C=C(C)[C@@H]1CC[C@]2(C(=O)NCCCCCCCC(=O)NCCCC(=O)O)CC[C@]3(C)[C@H](CC[C@@H]4[C@@]5(C)CC[C@H](O)C(C)(C)[C@@H]5CC[C@]43C)[C@@H]12 |  | >3 µM
O=C1CSC2=NC(=O)C3(NN12)c1ccccc1-c1ccccc13 |  | 95 µM
CN[C@H](CC(C)C)C(=O)N[C@H]1C(=O)N[C@@H](CC(N)=O)C(=O)N[C@H]2C(=O)N[C@H]3C(=O)N[C@H](C(=O)N[C@H](C(=O)O)c4cc(O)cc(O)c4-c4cc3ccc4O)[C@H](O)c3ccc(c(Cl)c3)Oc3cc2cc(c3O[C@@H]2O[C@H](CO)[C@@H](O)[C@H](O)[C@H]2O[C@H]2C[C@](C)(N)[C@H](O)[C@H](C)O2)Oc2ccc(cc2Cl)[C@H]1O | cell count | >500 µM
C=CCNC(=O)NC1=CSC2=NC(=O)C3(NN12)c1ccccc1-c1ccccc13 |  | 50 µM
C=C(C)[C@@H]1CC[C@]2(C(=O)NCCCCCCCCCCCC(=O)O)CC[C@]3(C)[C@H](CC[C@@H]4[C@@]5(C)CC[C@H](O)C(C)(C)[C@@H]5CC[C@]43C)[C@@H]12 |  | >3 µM
Cc1cn([C@@H]2O[C@H](CO[Si](C)(C)C(C)(C)C)C3(O[C@H]3C(=O)NO)[C@H]2O[Si](C)(C)C(C)(C)C)c(=O)[nH]c1=O | propidium iodide / flow cytometry | 3.1 µM
COc1ccc(/C=N/NC(=O)CN2c3c(-c4ccccc4)n[nH]c3-c3ccccc3S2(=O)=O)cc1 |  | 31.6 µM
C=C(C)C[C@H](NC(=O)c1ccccc1SSc1ccccc1C(=O)N[C@@H](CC(=C)C)C(=O)O)C(=O)O |  | >100 µM
CN(C)c1ccc(/C=N/NC(=O)CN2c3c(-c4ccccc4)n[nH]c3-c3ccccc3S2(=O)=O)cc1 |  | 28.9 µM
O=C(N[C@H]1C(=O)N[C@@H]2Cc3ccc(c(Cl)c3)Oc3cc4cc(c3O)Oc3ccc(cc3Cl)[C@@H](O)[C@@H]3NC(=O)[C@H](NC(=O)[C@@H]4NC(=O)[C@@H](NC2=O)c2cc(O)cc(c2)Oc2cc1ccc2O)c1ccc(O)c(c1)-c1c(O)cc(O)cc1[C@@H](C(=O)O)NC3=O)OCC1c2ccccc2-c2ccccc21 | cell count | 114 µM
C=C(C)[C@@H]1CC[C@]2(C(=O)NCCCCCCCC(=O)N[C@H](CCC(=O)O)CC(C)C)CC[C@]3(C)[C@H](CC[C@@H]4[C@@]5(C)CC[C@H](O)C(C)(C)[C@@H]5CC[C@]43C)[C@@H]12 |  | >3 µM
CN[C@H]1C(=O)N[C@@H]2Cc3ccc(cc3)Oc3cc4cc(c3O[C@@H]3O[C@H](C(=O)O)[C@@H](O)[C@H](O)[C@H]3N)Oc3ccc(cc3Cl)[C@@H](O)[C@@H]3NC(=O)[C@H](NC(=O)[C@@H]4NC(=O)[C@@H](NC2=O)c2cc(cc(O)c2Cl)Oc2cc1ccc2O)c1ccc(O)c(c1)-c1c(O[C@H]2O[C@H](CO)[C@@H](O)[C@H](O)[C@@H]2O)cc(O)cc1[C@@H](C(=O)O)NC3=O | cell count | >500 µM
O=P(O)(O)OP(=O)(O)OP(=O)(O)OP(=O)(O)O | MTT | >100 µg/mL
CC/C=C\C/C=C\C/C=C\CCCCCCCC(=O)OC[C@@H](CO[C@H]1O[C@H](CS(=O)(=O)O)[C@@H](O)[C@H](O)[C@H]1O)OC(=O)CCCCCCCCCCCCCCC |  | >300 µg/mL
O=C(CSC1=NNC2(C(=O)N1)c1ccccc1-c1ccccc12)NC(=S)Nc1ccccc1 |  | 35 µM
O=C(O)CCCCNC(=O)c1ccccc1SSc1ccccc1C(=O)NCCCCC(=O)O |  | 64 µM
CCOC(=O)CC1(O)[C@@H](CO[Si](C)(C)C(C)(C)C)O[C@@H](n2ccc(=O)[nH]c2=O)[C@@H]1O[Si](C)(C)C(C)(C)C | propidium iodide / flow cytometry | 25 µM
Cc1ccc2nc(Cl)c(/C=C/C(=O)c3cc(C)oc3C)cc2c1 | MTS | >100 µM
O=C1NC(=O)C(CSc2ccncc2)(CSc2ccncc2)N1 |  | >100 µM
O=C(CN1c2c(-c3ccccc3)n[nH]c2-c2ccccc2S1(=O)=O)N/N=C/c1ccc(Cl)cc1Cl |  | 10.9 µM
CCCN(C[C@@H](O)[C@H](Cc1ccccc1)NC(=O)[C@H](C)CS(C)(=O)=O)S(=O)(=O)c1ccccc1 |  | 438 µM
COc1ccc(/C=N/NC(=O)CN2c3c(-c4ccccc4)n[nH]c3-c3ccccc3S2(=O)=O)cc1OC |  | 48.6 µM
COc1ccc2nc(Cl)c(/C=C/C(=O)c3ccc(Cl)s3)cc2c1 | MTS | 31.6 µM

For reference, 6 entries again:

structure	read by	result
O=C1NC(=O)C(CSCc2ccccc2)(CSCc2ccccc2)N1		>100 µM
NNC(=O)CN1c2c(-c3ccccc3)n[nH]c2-c2ccccc2S1(=O)=O		15.1 µM
O=C1CSC2=NC(=O)C3(NN12)c1ccccc1-c1ccccc13		95 µM
CN(C)c1ccc(/C=N/NC(=O)CN2c3c(-c4ccccc4)n[nH]c3-c3ccccc3S2(=O)=O)cc1		28.9 µM
Cc1ccc2nc(Cl)c(/C=C/C(=O)c3ccc(I)s3)cc2c1	MTS	61.1 µM
CC(NC(=O)c1ccccc1SSc1ccccc1C(=O)NC(C)C(=O)O)C(=O)O		>100 µM